# Data taken from US10701928B2, “Method for animal tissue material disinfection and sterilization and corresponding animal tissue soak solution” (Beijing Ruijian Gaoke Biotechnology Co., Ltd., priority 2013, dated 2020).
# Assay: Differential scanning calorimetry of the treated tissue matrix
# Format: physicochemical
# Conditions: Example 5: fresh porcine hide about 1 mm, treated 1-2 hours, washed with phosphate buffer
row,SMILES,damage on the tissue matrix (DSC)
1,"OCl [0.2% sodium hypochlorite, sodium hypochlorite]",different degrees of damage on the tissue matrix
2,"[Na+].[OH-] [1N sodium hydroxide, sodium hydroxide]",different degrees of damage on the tissue matrix
3,"OO [3.0% hydrogen peroxide, hydrogen peroxide]",different degrees of damage on the tissue matrix

# Some compounds share one wording; it may come from a single statement.
